{
  "source": "patent US10245246B2",
  "about": "“β-substituted β-amino acids and analogs as chemotherapeutic agents” (QUADRIGA BIOSCIENCES, INC., priority 2014, dated 2019)",
  "test_system": "LLCPK cells conditionally expressing hLAT1",
  "experiment": "LAT1-specific in vitro cytotoxicity, modified clonogenic assay",
  "format": "cell-based",
  "conditions": "3 μM test compound for 30 min, proliferation 7-10 days",
  "data": [
    {"smiles": "Cc1cc(N(CCCl)CCCl)ccc1C(N)CC(=O)O", "note": "(stereo not shown)", "values": [
      {"measurement": "percent surviving cells in cells expressing LAT1 compared to cells not expressing LAT1 (reduction)", "value": "about the same"}
    ]}
  ]
}
